Experimental data reported in patent US20260069689A1, “ANTI-SARS-COV-2-SPIKE GLYCOPROTEIN ANTIBODIES AND ANTIGEN-BINDING FRAGMENTS” (Regeneron, published 2026).

Target: SARS-COV-2 RBD extracellular domain expressed with a C-terminal myc-myc-hexahistidine tag (SARS-CoV-2)
Assay: SPR (Biacore), mAb captured by anti-human Fc, RBD-mmH in solution, 25 C

B1: mAb14281 (antibody, V domains shown)
VH: QVQLVQSGADVKKPGASVKVSCKTSGYIFTGYYIHWVRQAPGQGLEWMGWINPNSGGTNSAQKFQGRVTMTRDTSISTVYMELSRLRSDDTAVYYCAKSNSFSVLDYNFDYWGQGTLVTVSS
VL: SSELTQDPAVSVALGQTVRITCQGDSLRSYYASWYQQKPGQAPVLVIYDKNNRPSGIPDRFSGSSSGNTASLTITGAQAEDEADYYCNSRDSSRNHLVVFGGGTKLTVLG
  RBD monomer bound at 50 nM (RU): 158 RU

B2: mAb14292 (antibody, V domains shown)
VH: EVQLVESGGGLVQPGGSLRLSCVASGFAFSTYEMNWVRQAPGKGLEWVSYISSSGSTIYYADSVKGRLTISRDNVKNSLYLQMNSLRVEDTAIYYCARDAIRNNDILTDPATFDPWGQGTLVTVSS
VL: not shown
  RBD monomer bound at 50 nM (RU): 11.1 RU

B3: mAb14285 (antibody, V domains shown)
VH: QVQLVQSGAEVKKPGASVKVSCKASGYTFTGYFIHWVRQAPGQGLEWMGWISPISGGTNYAQKFQGRVTVTRDTSITTAYMELSRLTSDDTAVYHCAREGGTWKGDFDYWGQGTLVTVSS
VL: QSALTQPASVSGSPGQSITISCTGTSSDVESYNLVSWYQQHPGKAPKLMIYEGSKRPSGVSNRFSGSKSGNTASLTISGLQAEDEADYYCSSYAGSSTWVFGGGTKLTVLG
  RBD monomer bound at 50 nM (RU): 158 RU

B4: mAb14280 (antibody, V domains shown)
VH: QVQLVQSGAEVKKPGASVRVSCKASGYTFTGNYIHWVRQAPGQGLEWMAWINPNSGGKNYAQKFQGRVTLTRDTSVNTAYMELSRLRSDDTAMYYCARDVNYNILTGPGGLWGQGTLVTVSS
VL: QSALTQPPSASGSPGQSVTISCTGTSSDVGGYNFVSWYQQHPGKAPKLMIYEVSKRPSGVPDRFSGSKSGNTASLTVSGLQAEDEADYYCSSYAGSNNFVFGTGTKVTVLG
  RBD monomer bound at 50 nM (RU): 177 RU

B5: mAb14286 (antibody, V domains shown)
VH: QVQLVQSGAEVKKPGASVKVSCKASGYTFTDYFIHWVRQAPGQGLEWMGWINPTSGGTNYAQKFRGRVTMTRDTSISTAYVELSRLRSDDTALYYCARDLPFYSDTKQFDYWGQGTLVTVSS
VL: QSALTQPASVSGYPGQSITISCTGTSSDVGGYNYVSWYQQHPGKAPKLMIFDVSNRPSGVSNRFSGSKSGNTASLTFSGLQAEDEADYYCSSYTSSSTLVFGGGTKLTVLG
  RBD monomer bound at 50 nM (RU): 158 RU

B6: mAb14234 (antibody, V domains shown)
VH: QVQLVESGGGVVQPGRSLRLSCAASGFTFSSYGIHWVRQAPGKGLEWVAIIWYDGSEKYYADSVKGRFTISRDNSKNTLFLQMNSLEAEDTAVYYCARGPDLLTGYYNYFYYGMDVWGQGTTVTVSS
VL: QSVLTQPPSVSGAPGQRVTISCTGSSSNIGIGYDVHWYQQLPGTVPKLLIYGNTNRPSGVPDRFSGSKSGTSASLAITGLQAEDEADYYCQSYDSSLSSYVFGTGTKVTVLG
  RBD monomer bound at 50 nM (RU): 153 RU

B7: mAb14282 (antibody, V domains shown)
VH: QVQLVQSGAEVKKPGASVKVSCKASGYIFTDHYMHWVRQAPGQGLEWMGWINPNSGATNYAQNFQGRVTMTRDTSIITVYMELSRLRSDDTAVYYCARDSSPYMIRYTMDVWGQGTTITVSS
VL: QSALTQPASVSGSPGQSITISCTGTSSDVGSYNLVSWYQQHPGKAPKLMIYELTKRPSGVSNRFSGSKSGNTASLTISGLQAEDEADYYCSSYRGSVTDVVFGGGTKLTVLG
  RBD monomer bound at 50 nM (RU): 170 RU

B8: mAb14230 (antibody, V domains shown)
VH: EVQLVESGGGLIQPGRSLRLSCAASGFTFDDYAMHWVRQAPGKGLEWVSGISWNSVSIDYADSVKGRFTISRDNAKNSLYLQMTSLTVEDTALYYCAKAFGYETLTGSDYFAYWGPGTLVTVSS
VL: EIVLTQSPGTLSLSPGERATLSCRASQTVISTYLAWYQQKPGQSPRLLIYGASSRATGIPDRFSGSGSGTDFTLTISRLEPEDFAVYYCQQYGSSPQLTFGGGTKVEIKR
  RBD monomer bound at 50 nM (RU): 114 RU
